Measured values taken from article PMC4829233, “Identification of Novel Chemical Scaffolds Inhibiting Trypanothione Synthetase from Pathogenic Trypanosomatids” (PLoS Neglected Tropical Diseases, 2016).
Where “and” joins values, the source holds several entries; their conditions need not be identical. Identical values can stand only once. This is a selection: effects in other tests are not listed, and their absence says nothing.

Protein sequences, listed by entry. Tags and fused reporters are not part of them. Residues count along the entry.
UniProt Q9GT49, whole entry: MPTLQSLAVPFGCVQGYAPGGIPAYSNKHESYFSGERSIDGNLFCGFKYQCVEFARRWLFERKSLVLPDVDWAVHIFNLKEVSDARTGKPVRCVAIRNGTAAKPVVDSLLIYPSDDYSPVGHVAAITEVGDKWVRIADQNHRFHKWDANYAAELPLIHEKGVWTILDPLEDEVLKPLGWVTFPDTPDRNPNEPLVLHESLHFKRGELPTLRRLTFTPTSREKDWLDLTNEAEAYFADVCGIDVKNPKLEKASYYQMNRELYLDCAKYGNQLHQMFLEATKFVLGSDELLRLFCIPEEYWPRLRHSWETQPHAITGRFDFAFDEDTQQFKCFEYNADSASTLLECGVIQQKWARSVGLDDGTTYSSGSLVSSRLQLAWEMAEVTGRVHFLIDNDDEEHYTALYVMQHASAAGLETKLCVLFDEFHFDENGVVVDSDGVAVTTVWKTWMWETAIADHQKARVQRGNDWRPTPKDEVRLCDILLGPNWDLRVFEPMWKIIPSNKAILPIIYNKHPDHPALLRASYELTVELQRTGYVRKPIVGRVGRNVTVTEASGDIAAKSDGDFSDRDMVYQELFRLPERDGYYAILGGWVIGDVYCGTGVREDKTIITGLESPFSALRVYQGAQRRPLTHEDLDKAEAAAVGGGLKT
UniProt Q8IEX1, 1-627: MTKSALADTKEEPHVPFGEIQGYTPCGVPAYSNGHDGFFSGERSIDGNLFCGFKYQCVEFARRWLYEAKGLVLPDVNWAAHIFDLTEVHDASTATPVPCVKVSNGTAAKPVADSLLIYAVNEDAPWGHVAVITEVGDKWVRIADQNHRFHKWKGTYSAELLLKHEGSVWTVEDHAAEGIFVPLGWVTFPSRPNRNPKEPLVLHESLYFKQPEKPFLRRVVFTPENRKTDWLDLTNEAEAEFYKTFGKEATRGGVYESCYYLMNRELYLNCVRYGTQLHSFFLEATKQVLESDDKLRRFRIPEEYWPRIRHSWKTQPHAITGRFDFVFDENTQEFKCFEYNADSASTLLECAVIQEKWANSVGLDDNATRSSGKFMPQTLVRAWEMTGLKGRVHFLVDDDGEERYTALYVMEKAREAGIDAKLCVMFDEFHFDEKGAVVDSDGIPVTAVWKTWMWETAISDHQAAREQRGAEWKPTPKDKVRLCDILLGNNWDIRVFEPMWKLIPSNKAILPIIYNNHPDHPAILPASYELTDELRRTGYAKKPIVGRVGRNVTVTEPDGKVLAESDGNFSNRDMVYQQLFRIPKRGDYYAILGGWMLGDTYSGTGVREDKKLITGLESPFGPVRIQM

Experiments:
Assay in all cases: TryS screening assay (BIOMOL GREEN end-point)
Assay type in all cases: biochemical
[1] = molecular target: TcTryS (Trypanosoma cruzi trypanothione synthetase) (Trypanosoma cruzi, UniProt Q9GT49); conditions: compound 30 μM, 150 μM ATP, 2 mM SP, 0.57 mM GSH
[2] = molecular target: LiTryS (Leishmania infantum trypanothione synthetase) (Leishmania infantum, UniProt A4I2Z3); conditions: compound 30 μM; 150 μM ATP, 2 mM SP, […] GSH; relative to DMSO control
[3] = molecular target: TbTryS (Trypanosoma brucei trypanothione synthetase) (Trypanosoma brucei brucei, UniProt Q8IEX1); conditions: compound 30 μM; 150 μM ATP, 2 mM SP, 0.05 mM GSH; relative to DMSO control

For `[O-][n+]1onc2c1c1no[n+]([O-])c1c1no[n+]([O-])c21`, the “% TcTryS inhibition ± 2σn-1” value [1] was “about 40%”, the “TcTryS Activity ± 2σn-1 (%)” value ([1]; relative to DMSO control) was 64.4 ± 3.8% and 64.4 ± 3.8; 4% and the “LiTryS Activity ± 2σn-1 (%)” value [2] was 111.5 ± 14.5%. The “TbTryS Activity ± 2σn-1 (%)” value [3] was 118.8 ± 2.4%.
